In this experiment the test system is S. aureus strain AG461. In words: Time-kill experiment, S. aureus AG461 (FIG. 1). Format: cell-based. Conditions: 0.004 and 0.032 μg/ml (1x and 8x MIC), within one hour of contact. As for the experimental part:
The bactericidal activity of lysostaphin against S. aureus was also studied by means of time-kill experiments. In one experiment of this type, S. aureus strain AG461, a methicillin-resistant clinical isolate from Genoa, Italy, was inoculated into Mueller-Hinton broth (Difco) and grown at 37° C. with gentle shaking until it reached approximately 10^8 viable cells per ml (CFU/ml), as estimated from the absorbance of the culture at 600 nm. The culture was then diluted with fresh broth to approximately 10^6 CFU/ml and 5 ml aliquots were placed in several different flasks for exposure to different concentrations of antibacterial agents. Incubation was continued, with gentle shaking, at 37° C., and samples were withdrawn at intervals for determination of viable cells. Serial 10-fold dilutions of the samples were made in sterile saline (0.9% NaCl in distilled water) and duplicate 0.1 ml aliquots of appropriate dilutions were plated on Tryptic Soy agar plates (Remel) using the agar inclusion method. (In this method, the aliquot to be plated is added to 2.5 ml of top agar, which is mixed and poured onto a plate. Top agar consisted of molten Tryptic Soy agar (Difco) diluted 2-fold with Difco Tryptic Soy broth to give a final agar concentration of 0.75%, w/v.) The plates were incubated for 24-48 hours at 36° C. and the colonies were counted manually. […]

In the case of “lysostaphin: recombinant lysostaphin enzyme from fermentation of B. sphaericus; majority component lacks the two N-terminal amino acids of the published sequence”, the bacteria killed entry was “at least 99.9%”.
